A mixed list of measured activities; the numbers were collected in NIAID ChemDB.

Common to all: growth or infection tests; species: Cryptosporidium parvum; measure: inhibition

Percent inhibition refers to the dose given; in toxicity tests it is the harm to the cells.

compound	strain or isolate	cell line	method	tested at	result
O=C1c2ccccc2C(=O)c2[nH]ncc21				100 µM	<10%
Nc1ccc2c(Sc3ccc([N+](=O)[O-])cc3)c3ccccc3nc2c1				10 µg/mL	26%
O=C1/C(=C/c2cccc(O)c2)Oc2cc(O)ccc21				25 µM	19%
CC[C@@H](C(=O)[C@@H](C)[C@@H](O)[C@H](C)CCc1ccc(C)c(O)c1C(=O)O)[C@H]1O[C@](CC)([C@H]2CC[C@](O)(CC)[C@H](C)O2)C[C@@H]1C	IOWA	MDCK	luminescence	2 µg/mL	80.2%
NC[C@@H]1O[C@H](O[C@H]2[C@@H](O)[C@H](O[C@@H]3[C@@H](O)[C@H](N)C[C@H](N)[C@H]3O[C@H]3O[C@H](CO)[C@@H](O)[C@H](O)[C@H]3N)O[C@@H]2CO)[C@H](N)[C@@H](O)[C@@H]1O		MDBK	cell count	500 µg/mL	71.9%
O=C(c1ccccc1)c1oc2cc(O)cc(O)c2c1O				25 µM	17%
CCn1nc(Cc2ccccc2)c2c1C(=O)c1c(OC(C)=O)c(C)c(C)c(OC(C)=O)c1C2=O				50 µM	<10%
CCCCCCSc1c2ccccc2nc2ccccc12				50 µg/mL	37%
O=C1c2cccc(Cl)c2C(=O)c2cn[nH]c21				100 µM	100%
COc1cc(/C=C2\Oc3cc(O)cc(O[C@@H]4O[C@H](CO)[C@@H](O)[C@H](O)[C@H]4O)c3C2=O)cc(OC)c1OC(C)=O				50 µM	10%
CC[C@H]1OC(=O)[C@H](C)[C@@H](O[C@H]2C[C@@](C)(OC)[C@@H](O)[C@H](C)O2)[C@H](C)[C@@H](O[C@@H]2O[C@H](C)C[C@H](N(C)C)[C@H]2O)[C@](C)(O)C[C@@H](C)CN(C)[C@H](C)[C@@H](O)[C@]1(C)O		A549		8 µg/mL	33%
CO[C@H]1/C=C/O[C@@]2(C)Oc3c(C)c(O)c4c(O)c(c5c(c4c3C2=O)NC2(CCN(CC(C)C)CC2)N=5)=NC(=O)/C(C)=C\C=C\[C@H](C)[C@H](O)[C@@H](C)[C@@H](O)[C@@H](C)[C@H](OC(C)=O)[C@@H]1C		A549		0.5 µg/mL	6.1%
O=C(c1ccccc1)c1oc2cc(O)cc(Cc3ccccc3)c2c1O				10 µM	2%
CCN(CC)CCSc1c2ccccc2nc2cc(Cl)ccc12				50 µg/mL	71%
COc1cccc2c1C(=O)c1cnn(C)c1C2=O				10 µM	<10%
O=C1/C(=C/c2ccc(O)c(O)c2)Oc2cc(O)ccc21				10 µM	0%
CCn1ncc2c1C(=O)c1c(O)ccc(O)c1C2=O				25 µM	<10%
CCSc1c2ccccc2nc2cc(Cl)ccc12				10 µg/mL	10%
COc1cc(/C=C/C=C\c2ccc3c(c2)OCO3)oc(=O)c1				25 µM	6%

Repeating the first 2 entries:

compound,strain or isolate,cell line,method,tested at,result
O=C1c2ccccc2C(=O)c2[nH]ncc21,,,,100 µM,<10%
Nc1ccc2c(Sc3ccc([N+](=O)[O-])cc3)c3ccccc3nc2c1,,,,10 µg/mL,26%

Blank or dashed fields: not listed here. Rows are shuffled and stem from different studies.